{"source": "PubChem BioAssay AID624099, ICCB-Longwood | 2012", "assay": "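Human genes that papillomavirus E2 requires to repress the HPV18 LCR promoter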 (primary screen)", "cells": "human C33A cervical carcinoma cells (HPV-negative) stably expressing BPV1 E2 and an HPV18 LCR luciferase reporter", "reagents": "siRNA pool against human genes, 40 nM", "timing": "72 h", "measured": "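HPV18 LCR reporter light per well, converted to plate-wise z-scores that exclude control wells, and averaged over triplicate plates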", "scale": "mean z-score and z-score: higher = stronger reporter signal, weaker E2 silencing", "call rule": "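Mean z ≥ 2 together with z ≥ 2 in two or more of the three replicates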", "note": "This is a random part of about 21,000 reagents. Over the whole deposit, 497 (2.4%) are marked active. 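Higher z means weaker E2 silencing; only reporter increases were scored, and knock-downs that hurt cell survival may mask genuine repressor factors.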 Unmarked entries are inactive. Reagents against one gene are numbered here."}
{"Gene": "NFKBIL1 (NFKB inhibitor like 1)", "pool no.": 1, "mean z-score": -0.49, "z-score, replicate A": -0.2, "z-score, replicate B": -0.39, "z-score, replicate C": -0.89}
{"Gene": "OSBPL2 (oxysterol binding protein like 2)", "pool no.": 1, "mean z-score": 0.06, "z-score, replicate A": -0.17, "z-score, replicate B": 0.22, "z-score, replicate C": 0.13}
{"Gene": "OSBPL2 (oxysterol binding protein like 2)", "pool no.": 2, "mean z-score": "2.1 (active)", "z-score, replicate A": 1.59, "z-score, replicate B": 2.04, "z-score, replicate C": 2.67}
{"Gene": "EFHD1 (EF-hand domain family member D1)", "pool no.": 1, "mean z-score": -0.26, "z-score, replicate A": -0.6, "z-score, replicate B": -0.12, "z-score, replicate C": -0.06}
{"Gene": "LYSMD2 (LysM domain containing 2)", "pool no.": 1, "mean z-score": 0.4, "z-score, replicate A": 0.05, "z-score, replicate B": 0.45, "z-score, replicate C": 0.68}
{"Gene": "HSPH1 (heat shock protein family H (Hsp110) member 1)", "pool no.": 1, "mean z-score": -1.14, "z-score, replicate A": -0.9, "z-score, replicate B": -1.28, "z-score, replicate C": -1.24}
{"Gene": "SPCS3 (signal peptidase complex subunit 3)", "pool no.": 1, "mean z-score": 0.07, "z-score, replicate A": 0.09, "z-score, replicate B": -0.26, "z-score, replicate C": 0.39}
{"Gene": "SOX7 (SRY-box transcription factor 7)", "pool no.": 1, "mean z-score": 0.11, "z-score, replicate A": 0.16, "z-score, replicate B": 0.16, "z-score, replicate C": 0.01}
{"Gene": "MRPL42 (mitochondrial ribosomal protein L42)", "pool no.": 1, "mean z-score": -1.8, "z-score, replicate A": -1.68, "z-score, replicate B": -1.81, "z-score, replicate C": -1.9}
{"Gene": "UACA", "pool no.": 1, "mean z-score": 0.67, "z-score, replicate A": 0.9, "z-score, replicate B": 0.65, "z-score, replicate C": 0.44}
{"Gene": "THPO (thrombopoietin)", "pool no.": 1, "mean z-score": 0.91, "z-score, replicate A": 0.76, "z-score, replicate B": 0.96, "z-score, replicate C": 1.01}
{"Gene": "FABP4 (fatty acid binding protein 4)", "pool no.": 1, "mean z-score": 0.21, "z-score, replicate A": 0.4, "z-score, replicate B": 0.25, "z-score, replicate C": -0.03}
{"Gene": "ZNF688 (zinc finger protein 688)", "pool no.": 1, "mean z-score": 1.38, "z-score, replicate A": 0.89, "z-score, replicate B": 1.7, "z-score, replicate C": 1.54}
{"Gene": "CAPN9 (calpain 9)", "pool no.": 1, "mean z-score": -0.27, "z-score, replicate A": -0.19, "z-score, replicate B": -0.29, "z-score, replicate C": -0.35}

Entries above whose target name starts with S or s (2):
{"Gene": "SPCS3 (signal peptidase complex subunit 3)", "pool no.": 1, "mean z-score": 0.07, "z-score, replicate A": 0.09, "z-score, replicate B": -0.26, "z-score, replicate C": 0.39}
{"Gene": "SOX7 (SRY-box transcription factor 7)", "pool no.": 1, "mean z-score": 0.11, "z-score, replicate A": 0.16, "z-score, replicate B": 0.16, "z-score, replicate C": 0.01}
